Measured values reported in paper PMC8001737, “Isolation and Characterization of Cross-Reactive Human Monoclonal Antibodies That Potently Neutralize Australian Bat Lyssavirus Variants and Other Phylogroup 1 Lyssaviruses” (Viruses, 2021).

B1: Fab A6 (phage-displayed) (Fab, V domains shown)
VH: EVQLVQSGAEVKKPGASVKVSCKASGYDFTDFYVHWVRQAPGQRLEWMGWINPGSGATDYAQKFQGRVTMTRDTSISTAYMEVSRLRSDDTAMYYCARPNAPRYMERLSATPSFDSWGQGTLVTVS
VL: EIVLTQSPGTLSLSPGEGATLSCRASQSVSSINLAWYQQKPGQAPRLLMYGASTRATGIPDRFSGSGSGTDFTLTISRLESEDFAVYYCQQYGSSPLTFGGGTKVEIK
B2: human monoclonal antibody A6 (IgG1) (antibody, V domains shown)
VH: B1 VH
VL: B1 VL
notes: also called hmAb A6; copies: 2 + 2

Target: ABLVs glycoprotein (G), on recombinant vesicular stomatitis virus rVSV-ABLVs-G (Australian bat lyssavirus (isolate …, UniProt Q9QSP1, strain))
Assay: ELISA

Row | Binder | binding result (partners not purified) | binding result (one partner purified)
1 | B1 | binds | –
2 | B2 | – | binds
